Data taken from patent US20260382604A1, “Inhibitors of Type 1 Methionyl-tRNA Synthetase and Methods of Using Them” (published 2026).
Where “and” joins values, the source holds several entries; their conditions need not be identical. Equal values may be shown once. Read-outs that look alike come from different tables or passages of the source.

Assays:
T. cruzi = T. cruzi growth inhibition assay
Protocol: Trypanosoma crud growth inhibition assay: The Tulahuen strain of T. cruzi that expresses the Escherichia coli 3-galactosidase gene was utilized (PMID: 8913471). Mammalian stages of parasites were grown at 37 °C on monolayers of murine 3T3 fibroblasts in RPMI 1640 (Biowhittaker Inc., Walkersville, Md.) with 10% fetal bovine serum, penicillin, streptomycin, and glutamine. Growth inhibition assays were performed in 96-well tissue culture plates (Costar, Cambridge, Mass.). First, 3T3 fibroblasts were inoculated at 103/well using RPMI 1640 without phenol red (Biowhittaker Inc.) plus 10% fetal bovine serum and glutamine. The next day, the plates were infected with T. cruzi trypomastigotes at 104/well. After 4 h, drugs were added in serial dilutions to give a final volume of 200 μl/well. The plates were incubated at 37 °C in 5% CO2 atmosphere for 6 days. At this time. CPRG (100 μM final) and Nonidet P-40 (0.1% final) (Sigma Chemical Co., St. Louis, Mo.) were added and the plates were incubated at 37 °C for approximately 4 h. Wells with 0-galactosidase activity turned the media from yellow to red, and this was quantified on an enzyme-linked immunosorbent assay reader at A570.

S. aureus = assay: Susceptibility testing (MIC), S. aureus; details: for S. aureus MIC: serum-free conditions
Source text: (§1) Media and culture conditions. Mueller Hinton broth (MHB), cation adjusted Mueller Hinton broth (CA-MHB), Todd Hewitt Broth (THB) and Brain Heart Infusion broth (BHI) were purchased from Becton Dickinson (Franklin Lakes, NJ). Tryptic soy agar (TSA) plates and TSA with 5% sheep blood plates were purchased from Remel (San Diego, CA). MHB was used to assay all Staphylococcus aureus strains. CA-MHB was used for Staphylococcus epidermidis, Enterococcus faecalis, Enterococcus faecium, Escherichia coil, and Pseudomonas aeruginosa. THB broth supplemented with 1% yeast extract was used for Streptococcus pneumoniae and Streptococcus pyogenes. Staphylococcus. Enterococcus, Escherichia, and Pseudomonas strains were cultured at 37 °C with ambient air. Streptococcus strains were cultured in 37 °C with 5% CO2. Separate conditions for radiolabeled precursor uptake assays are described below.
(§2) Susceptibility testing: Minimum inhibitory concentration (MIC) determinations are performed in triplicate in 96-well round bottom microtiter plates (Corning, Corning NY) as described by the Clinical and Laboratory Standards Institute (CLSI). Serial two-fold dilutions of compounds are added to plates in 50 μL volumes. An additional 50 μL of media containing bacterial cells (1×10^6 CFUs/mL) is then added to each well. Maximum DMSO concentrations are 0.5%. Plates are incubated at 37 °C for at least 18 h before reading the susceptibility result by optical absorbance (OD600) using a BioTek ELx800. The lowest concentration causing ≥90% growth inhibition compared to the untreated control is recorded as the MIC (and also corresponded to the visual MIC). MICs are measured at least twice and the higher value (if different) is recorded herein.

S. pyogenes = assay: Susceptibility testing (MIC), S. pyogenes; details: for S. pyogenes MIC: serum-free conditions
Source text: as §1, §2

MRSA = assay: Susceptibility testing (MIC), MRSA
Source text: as §1, §2

[1] = read-out: In Vitro EC50, anti-T. cruzi activity in vitro (Table 3)
[2] = read-out: T. cruzi EC50, in vitro growth inhibition (Table 4)

SMILES	EC50 (T. cruzi; [1])	S. aureus MIC (S. aureus)	S. pyogenes MIC (S. pyogenes) [µg/mL]	also measured
COc1cc(F)c(-c2c(F)nc(-c3cncnc3)c3nc(Cc4nc5nc(Cl)ccc5[nH]4)cn23)cc1OC	2.47 nM and 4.46 nM	–	–	–
CCc1ncn(-c2nc(F)c(-c3cc(OC)c(OC)cc3Cl)n3cc(Cc4nc5nc(Cl)ccc5[nH]4)nc23)n1	–	0.140 µg/mL	–	–
COc1cc(F)c(-c2c(F)nc(-c3cnn(C)c3)c3nc(Cc4nc5nc(Cl)ccc5[nH]4)cn23)cc1OC	10.2 nM and 10.6 nM	0.0173 µg/mL	0.187	–
COc1cc(Cl)c(-c2c(F)nc(-c3ccncc3)c3nc(Cc4nc5nc(Cl)ccc5[nH]4)cn23)cc1OC	< 1.83 nM and 2.31 nM and 2.61 nM	–	0.0302	–
COc1cc(Cl)c(-c2cnc(NCCNC(=O)OC(C)(C)C)c3nn(Cc4nc5nc(Cl)ccc5[nH]4)cc23)cc1OC	–	–	–	MRSA (ATCC33591) MIC (MRSA): 2.4 µg/mL; S. pyogenes (ATCC19615) MIC (S. pyogenes): >4.00 µg/mL; EC50 (T. cruzi; [2]): 600 nM; S. aureus (ATCC29213) MIC (S. aureus): 0.994 µg/mL
COc1cc(Cl)c(-c2cnc(N3CCN(S(=O)(=O)CCl)CC3)c3nn(Cc4nc5nc(Cl)ccc5[nH]4)cc23)cc1OC	–	–	–	MRSA (ATCC33591) MIC (MRSA): 0.153 µg/mL; S. pyogenes (ATCC19615) MIC (S. pyogenes): 0.108 µg/mL; EC50 (T. cruzi; [2]): 117 nM; S. aureus (ATCC29213) MIC (S. aureus): 0.0958 µg/mL
COc1cc(Cl)c(-c2cnc(S(C)(=O)=O)c3nn(Cc4nc5nc(Cl)ccc5[nH]4)cc23)cc1OC	–	–	–	MRSA (ATCC33591) MIC (MRSA): 0.0701 µg/mL; S. pyogenes (ATCC19615) MIC (S. pyogenes): 0.14 µg/mL; EC50 (T. cruzi; [2]): 245 nM
CCNc1nc(F)c(-c2cc(OC)c(OC)cc2Cl)n2cc(Cc3nc4nc(Cl)ccc4[nH]3)nc12	21.9 nM and 20.2 nM	0.0707 µg/mL	–	–
COc1cc(Cl)c(-c2c(F)nc(OC)c3nc(Cc4nc5nc(Cl)ccc5[nH]4)cn23)cc1OC	–	<0.0312 µg/mL	0.118	–
COc1cc(Cl)c(-c2cnc(F)c3nc(Cc4nc5nc(Cl)ccc5[nH]4)cn23)cc1OC	251 nM	–	–	loss of in vitro potency (T. cruzi; 8-F, compared to either 2541 or the parent 2503): more than an order of magnitude loss of in vitro potency
COc1cc(Cl)c(-c2c(F)nc(-c3cnn(CCO)c3)c3nc(Cc4nc5nc(Cl)ccc5[nH]4)cn23)cc1OC	–	0.0967 µg/mL and 0.0509 µg/mL	0.0589	–
COc1cc(Cl)c(-c2cnc(SC)c3nn(Cc4nc5nc(Cl)ccc5[nH]4)cc23)cc1OC	–	–	–	MRSA (ATCC33591) MIC (MRSA): 0.07 µg/mL; S. pyogenes (ATCC19615) MIC (S. pyogenes): 0.0697 µg/mL; EC50 (T. cruzi; [2]): 29.3 nM and 51.4 nM and 52.4 nM; S. aureus (ATCC29213) MIC (S. aureus): <0.0312 µg/mL
COc1cc(Cl)c(-c2c(F)nc(-c3ccnn3C)c3nc(Cc4nc5nc(Cl)ccc5[nH]4)cn23)cc1OC	–	–	0.03	–
COc1cc(Cl)c(-c2c(F)nc(-c3c(C)nn(C)c3C)c3nc(Cc4nc5nc(Cl)ccc5[nH]4)cn23)cc1OC	–	0.136 µg/mL	0.0772	–
CCn1ncc(C)c1-c1nc(F)c(-c2cc(OC)c(OC)cc2Cl)n2cc(Cc3nc4nc(Cl)ccc4[nH]3)nc12	10.4 nM and 9.25 nM	0.138 µg/mL	0.209	–
COc1cc(Cl)c(-c2c(F)nc(-n3cncn3)c3nc(Cc4nc5nc(Cl)ccc5[nH]4)cn23)cc1OC	28.9 nM and 29.9 nM	0.222 µg/mL	–	–
COc1cc(Cl)c(-c2c(F)nc(-c3c(C)cnn3C)c3nc(Cc4nc5nc(Cl)ccc5[nH]4)cn23)cc1OC	–	–	0.0549	–
COc1cc(F)c(-c2c(F)ncc3nc(Cc4nc5nc(Cl)ccc5[nH]4)cn23)cc1OC	52.2 nM and 69.8 nM	0.250 µg/mL and 0.368 µg/mL	2.27	–
CCn1cc(-c2nc(F)c(-c3cc(OC)c(OC)cc3Cl)n3cc(Cc4nc5nc(Cl)ccc5[nH]4)nc23)cn1	–	0.0423 µg/mL and 0.0442 µg/mL	0.0149	–
COc1cc(Cl)c(-c2cnc(N3CCN(c4cnccn4)CC3)c3nn(Cc4nc5nc(Cl)ccc5[nH]4)cc23)cc1OC	–	–	–	MRSA (ATCC33591) MIC (MRSA): 0.0797 µg/mL; S. pyogenes (ATCC19615) MIC (S. pyogenes): 0.206 µg/mL; S. aureus (ATCC29213) MIC (S. aureus): 0.226 µg/mL
COc1cc(Cl)c(-c2c(F)nc(-c3cnn(C)c3C)c3nc(Cc4nc5nc(Cl)ccc5[nH]4)cn23)cc1OC	3.16 nM and 5.93 nM	0.0485 µg/mL and 0.0455 µg/mL	0.0613	–

SMILES	EC50 (T. cruzi; [1])	S. aureus MIC (S. aureus)	S. pyogenes MIC (S. pyogenes) [µg/mL]	also measured
COc1cc(Cl)c(-c2c(F)nc(-c3c(C)nn(C4COC4)c3C)c3nc(Cc4nc5nc(Cl)ccc5[nH]4)cn23)cc1OC	14.6 nM and 11.2 nM	0.146 µg/mL	0.0946	–
CCOc1nc(F)c(-c2cc(OC)c(OC)cc2Cl)n2cc(Cc3nc4nc(Cl)ccc4[nH]3)nc12	5.44 nM and 4.82 nM	0.127 µg/mL	0.0422	–
COc1cc(Cl)c(-c2c(F)nc(-n3cnc(C)n3)c3nc(Cc4nc5nc(Cl)ccc5[nH]4)cn23)cc1OC	–	0.256 µg/mL	–	–
COc1cc(Cl)c(-c2c(F)nc(-c3cnn(C4CC4)c3)c3nc(Cc4nc5nc(Cl)ccc5[nH]4)cn23)cc1OC	3.88 nM and 6.57 nM	0.0355 µg/mL and 0.0439 µg/mL	0.0598	–
COc1cc(F)c(-c2c(F)nc(-c3cnn(CCO)c3)c3nc(Cc4nc5nc(Cl)ccc5[nH]4)cn23)cc1OC	33.5 nM and 36.7 nM	0.0205 µg/mL	0.0200	–
COc1cc(Cl)c(-c2cnc(N3CCOCC3)c3nn(Cc4nc5nc(Cl)ccc5[nH]4)cc23)cc1OC	–	–	–	MRSA (ATCC33591) MIC (MRSA): 0.0739 µg/mL and 0.110 µg/mL; S. pyogenes (ATCC19615) MIC (S. pyogenes): 0.24 µg/mL
COc1cc(Cl)c(-c2c(F)nc(-c3c(C#N)cnn3C)c3nc(Cc4nc5nc(Cl)ccc5[nH]4)cn23)cc1OC	22.7 nM	0.0682 µg/mL	0.383	–
COc1cc(Cl)c(-c2cnc([S+](C)[O-])c3nn(Cc4nc5nc(Cl)ccc5[nH]4)cc23)cc1OC (stereo not shown)	–	–	–	MRSA (ATCC33591) MIC (MRSA): 0.0463 µg/mL; S. pyogenes (ATCC19615) MIC (S. pyogenes): 0.136 µg/mL; S. aureus (ATCC29213) MIC (S. aureus): 0.0465 µg/mL
COc1cc(F)c(-c2c(F)nc(-c3cnn(C)c3C)c3nc(Cc4nc5nc(Cl)ccc5[nH]4)cn23)cc1OC	24.5 nM and 25.3 nM	0.0446 µg/mL	0.0259	–
COc1cc(Cl)c(-c2c(F)nc(-c3ccn(C)n3)c3nc(Cc4nc5nc(Cl)ccc5[nH]4)cn23)cc1OC	< 1.83 nM and 3.42 nM and 2.89 nM	–	0.12	–
COc1cc(F)c(-c2c(F)nc(-c3c(C)nn(C)c3C)c3nc(Cc4nc5nc(Cl)ccc5[nH]4)cn23)cc1OC	30.3 nM and 24.6 nM	0.0838 µg/mL	0.133	–
COc1cc(Cl)c(-c2cnc(NCC(F)F)c3nn(Cc4nc5nc(Cl)ccc5[nH]4)cc23)cc1OC	–	–	–	MRSA (ATCC33591) MIC (MRSA): 0.113 µg/mL; S. pyogenes (ATCC19615) MIC (S. pyogenes): 0.85 µg/mL; S. aureus (ATCC29213) MIC (S. aureus): 0.29 µg/mL
COc1cc(Cl)c(-c2c(F)nc(-c3cc(C)nn3C)c3nc(Cc4nc5nc(Cl)ccc5[nH]4)cn23)cc1OC	< 1.83 nM and 3.26 nM and 3.22 nM	0.0357 µg/mL and 0.0195 µg/mL	0.0335	–
COc1cc(Cl)c(-c2c(F)nc(-c3cn(C)nc3C)c3nc(Cc4nc5nc(Cl)ccc5[nH]4)cn23)cc1OC	–	–	0.0285	–
COc1cc(F)c(-c2c(F)nc(-c3c(C)cnn3C)c3nc(Cc4nc5nc(Cl)ccc5[nH]4)cn23)cc1OC	17.2 nM and 18.6 nM	0.173 µg/mL	0.286	–
COc1cc(Cl)c(-c2c(F)nc(-c3cccnc3)c3nc(Cc4nc5nc(Cl)ccc5[nH]4)cn23)cc1OC	–	–	0.136	–
COc1cc(Cl)c(-c2cnc(NCC(C)(C)O)c3nn(Cc4nc5nc(Cl)ccc5[nH]4)cc23)cc1OC	–	–	–	MRSA (ATCC33591) MIC (MRSA): 0.482 µg/mL; S. pyogenes (ATCC19615) MIC (S. pyogenes): 1.55 µg/mL; S. aureus (ATCC29213) MIC (S. aureus): 0.743 µg/mL
COc1cc(Cl)c(-c2cnc(NC3COC3)c3nn(Cc4nc5nc(Cl)ccc5[nH]4)cc23)cc1OC	–	–	–	EC50 (T. cruzi; [2]): > 500 nM; S. aureus (ATCC29213) MIC (S. aureus): >8.00 µg/mL
COc1cc(Cl)c(-c2cnc(OC)c3nn(Cc4nc5nc(Cl)ccc5[nH]4)cc23)cc1OC	–	–	–	MRSA (ATCC33591) MIC (MRSA): 0.18 µg/mL; EC50 (T. cruzi; [2]): 23.8 nM and 16.9 nM; S. aureus (ATCC29213) MIC (S. aureus): 0.205 µg/mL
COc1cc(Cl)c(-c2c(F)nc(-c3cncnc3)c3nc(Cc4nc5nc(Cl)ccc5[nH]4)cn23)cc1OC	< 1.83 nM and 1.5 nM and 2.04 nM	–	<0.00391	–
